# Potato spindle tuber viroid, loop 15: variant abundance in plants

Region: loop 15 of PSTVd (intermediate strain), upper and lower strand joined, each 5' to 3', the first 7 letters being the upper strand, closing pairs included. Wild type: GGAAACCGCUACUAC. Varied positions (N): GGAAACCGNNNNNNC.

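Three N. benthamiana plants were inoculated with the whole mutant pool. Samples came from the inoculated region at 5 days, the leaf margin at 10 and upper systemic leaves at 12.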

Numbers give reads per thousand; 0 = not seen among the reads, higher = more abundant. Each site shows the three plants. "Pool" is the share in the plasmid pool used as inoculum, on the same scale. The inoculated region was read from the minus strand, the other sites from the plus strand. With 43,870-66,106 reads a sample, very low values are single reads. Sequences that differ at fixed positions probably stem from PCR or sequencing errors, and defective variants can be carried along by functional ones. Wild type was 33.9 per thousand in the pool and the most common sequence in every sample (inoculated region 202, 200, 159; leaf margin 724, 746, 710; systemic leaves 856, 883, 880).

| sequence | pool | inoculated region | leaf margin | systemic leaves |
|---|---|---|---|---|
| GGAAACCGGCACACC | 0.256 | 0.0328 0.0803 0.0381 | 0 0 0 | 0 0 0 |
| GGAAACCGGCACAGC | 0.192 | 0.0164 0.0482 0.114 | 0 0 0.0200 | 0 0 0 |
| GGAAACCGGCACAUC | 0.128 | 0.147 0.0964 0.114 | 0 0 0 | 0 0 0 |
| GGAAACCGGCACCAC | 0.352 | 0.164 0.0803 0.0381 | 0 0 0.0200 | 0 0 0 |
| GGAAACCGGCACCCC | 0.336 | 0.164 0.129 0.0762 | 0 0 0 | 0 0 0 |
| GGAAACCGGCACCGC | 0.224 | 0.0819 0.161 0.152 | 0 0 0 | 0 0 0 |
| GGAAACCGGCACCUC | 0.176 | 0.0819 0.0964 0.0952 | 0.0162 0 0 | 0 0 0 |
| GGAAACCGGCACGAC | 0.240 | 0.0491 0.0803 0.0381 | 0.0162 0 0 | 0 0 0 |
| GGAAACCGGCACGCC | 0.192 | 0.164 0.0803 0.0381 | 0 0 0.0200 | 0 0 0 |
| GGAAACCGGCACGGC | 0.208 | 0.0983 0.112 0.0190 | 0 0.0223 0.0200 | 0 0 0 |
| GGAAACCGGCACGUC | 0.272 | 0.0819 0.112 0.133 | 0 0.0668 0.0200 | 0 0 0 |
| GGAAACCGGCACUAC | 0.288 | 0.295 0.482 0.267 | 0.0808 0.0445 0.160 | 0.0322 0.0454 0.205 |
| GGAAACCGGCACUCC | 0.224 | 0.0328 0.0643 0.114 | 0 0 0 | 0 0 0 |
| GGAAACCGGCACUGC | 0.288 | 0.0819 0.0964 0.0762 | 0 0 0.0401 | 0 0 0 |
| GGAAACCGGCACUUC | 0.224 | 0.442 0.225 0.362 | 0.226 0 0.140 | 0.0483 0 0 |
| GGAAACCGGCAGAAC | 0.304 | 0.262 0.305 0.343 | 0.0970 0.0891 0.0200 | 0.0966 0.0908 0.0228 |
| GGAAACCGGCAGACC | 0.192 | 0.0983 0.161 0.0762 | 0 0 0.0200 | 0 0 0 |
| GGAAACCGGCAGAGC | 0.208 | 0.0655 0.0643 0.0952 | 0.0162 0 0 | 0 0 0 |
| GGAAACCGGCAGAUC | 0.208 | 0.0819 0.112 0.152 | 0 0 0.0200 | 0 0 0 |
| GGAAACCGGCAGCAC | 0.272 | 0.0983 0.0964 0.114 | 0 0 0 | 0 0 0 |
| GGAAACCGGCAGCCC | 0.336 | 0.147 0.161 0.114 | 0.0162 0.0223 0.0200 | 0 0 0 |
| GGAAACCGGCAGCGC | 0.160 | 0.131 0.0964 0.0762 | 0 0.0223 0 | 0.0161 0 0 |
| GGAAACCGGCAGCUC | 0.192 | 0.0655 0.177 0.0762 | 0 0 0.0200 | 0 0 0 |
| GGAAACCGGCAGGAC | 0.272 | 0.246 0.369 0.438 | 0.0323 0.0891 0.120 | 0.0805 0 0 |
| GGAAACCGGCAGGCC | 0.224 | 0.0983 0.129 0.114 | 0.0162 0.0223 0 | 0 0 0 |
| GGAAACCGGCAGGGC | 0.240 | 0.0328 0.177 0.133 | 0 0 0 | 0 0 0 |
| GGAAACCGGCAGGUC | 0.144 | 0.0983 0.145 0.0381 | 0.0162 0 0 | 0 0 0 |
| GGAAACCGGCAGUAC | 0.208 | 0.295 0.289 0.305 | 0.162 0.0668 0.100 | 0.0644 0.0605 0.0912 |
| GGAAACCGGCAGUCC | 0.272 | 0.393 0.177 0.267 | 0.194 0.156 0.180 | 0.0161 0.0908 0.114 |
| GGAAACCGGCAGUGC | 0.240 | 0.262 0.305 0.324 | 0.162 0.111 0.160 | 0.0483 0.0908 0.137 |
| GGAAACCGGCAGUUC | 0.224 | 0.278 0.193 0.267 | 0.0323 0.0445 0.200 | 0.0644 0.0908 0.0684 |
| GGAAACCGGCAUAAC | 0.256 | 0.0491 0.112 0.0571 | 0.0162 0 0 | 0 0 0 |
| GGAAACCGGCAUACC | 0.256 | 0.164 0.145 0.133 | 0.0162 0 0 | 0 0 0 |
| GGAAACCGGCAUAGC | 0.128 | 0.0983 0.177 0.0190 | 0 0 0.0200 | 0 0 0 |
| GGAAACCGGCAUAUC | 0.240 | 0.0819 0.112 0.133 | 0 0 0 | 0 0 0 |
| GGAAACCGGCAUCAC | 0.272 | 0.131 0.0803 0.114 | 0 0.0223 0 | 0 0 0 |
| GGAAACCGGCAUCCC | 0.304 | 0.0983 0.0643 0.0762 | 0 0 0 | 0 0 0 |
| GGAAACCGGCAUCGC | 0.240 | 0.147 0.0803 0.0952 | 0.0162 0 0 | 0 0 0 |
| GGAAACCGGCAUCUC | 0.224 | 0.197 0.112 0.190 | 0 0 0 | 0.0161 0 0 |
| GGAAACCGGCAUGAC | 0.144 | 0.0983 0.0643 0.114 | 0 0.0223 0 | 0 0 0 |
| GGAAACCGGCAUGCC | 0.352 | 0.0655 0.0161 0.0381 | 0 0.0223 0 | 0.0161 0 0 |
| GGAAACCGGCAUGGC | 0.224 | 0.0328 0.0964 0.0190 | 0 0 0.0200 | 0 0 0 |
| GGAAACCGGCAUGUC | 0.176 | 0.0655 0.177 0.114 | 0 0 0 | 0 0 0 |
| GGAAACCGGCAUUAC | 0.272 | 0.213 0.321 0.324 | 0.113 0.0891 0.100 | 0.0805 0.0605 0.0456 |
| GGAAACCGGCAUUCC | 0.192 | 0.115 0.0643 0.0762 | 0 0 0.0200 | 0 0 0 |
| GGAAACCGGCAUUGC | 0.288 | 0.115 0.112 0.171 | 0.0162 0 0 | 0.0161 0 0 |
| GGAAACCGGCAUUUC | 0.240 | 0.246 0.305 0.267 | 0.129 0 0.160 | 0.0644 0.0454 0.0912 |
| GGAAACCGGCCAAAC | 0.144 | 0.115 0.0803 0.0762 | 0.0162 0 0.0401 | 0 0 0 |
| GGAAACCGGCCAACC | 0.160 | 0.0491 0.0643 0.0190 | 0.0162 0.0223 0.0200 | 0 0 0 |
| GGAAACCGGCCAAGC | 0.0640 | 0.0655 0.0803 0.190 | 0 0 0 | 0 0 0 |
| GGAAACCGGCCAAUC | 0.192 | 0.0164 0.145 0.0762 | 0.0323 0 0 | 0 0 0 |
| GGAAACCGGCCACAC | 0.192 | 0.0655 0.0803 0.133 | 0 0.0223 0.0200 | 0 0 0 |
| GGAAACCGGCCACCC | 0.320 | 0.0655 0.0643 0.0381 | 0 0.0223 0 | 0 0 0 |
| GGAAACCGGCCACGC | 0.272 | 0.0819 0.129 0.190 | 0 0 0.0801 | 0 0 0 |
| GGAAACCGGCCACUC | 0.208 | 0.0328 0.0964 0.133 | 0.0162 0 0.0601 | 0 0 0 |
| GGAAACCGGCCAGAC | 0.208 | 0.147 0.0964 0.0952 | 0 0.0223 0 | 0 0 0 |
| GGAAACCGGCCAGCC | 0.112 | 0.0328 0.112 0.0381 | 0 0.0223 0 | 0 0 0 |
| GGAAACCGGCCAGGC | 0.288 | 0.0819 0.0161 0.133 | 0 0 0 | 0 0 0 |
| GGAAACCGGCCAGUC | 0.224 | 0.0328 0.112 0.152 | 0 0 0.0200 | 0 0 0 |
| GGAAACCGGCCAUAC | 0.128 | 0.409 0.386 0.438 | 0.129 0.134 0.220 | 0.0322 0.0605 0.0684 |
| GGAAACCGGCCAUCC | 0.160 | 0.164 0.0643 0.0571 | 0.0162 0 0 | 0 0 0 |
| GGAAACCGGCCAUGC | 0.192 | 0.0164 0.177 0.209 | 0 0.0223 0 | 0.0161 0 0 |
| GGAAACCGGCCAUUC | 0.176 | 0.0819 0.0643 0.133 | 0 0 0 | 0 0 0 |
| GGAAACCGGCCCAAC | 0.256 | 0.0819 0.0964 0.0762 | 0.0323 0.0223 0.0200 | 0 0 0 |
| GGAAACCGGCCCACC | 0.144 | 0.0983 0.0643 0.0571 | 0 0 0.0401 | 0.0161 0 0 |
| GGAAACCGGCCCAGC | 0.192 | 0.0328 0.0482 0.0762 | 0 0 0.0200 | 0 0 0 |

Reference: Wu et al. 2024, doi:10.1371/journal.ppat.1012142.